The labels stand for the following.
B1: mAb14280 (antibody, V domains shown)
VH: QVQLVQSGAEVKKPGASVRVSCKASGYTFTGNYIHWVRQAPGQGLEWMAWINPNSGGKNYAQKFQGRVTLTRDTSVNTAYMELSRLRSDDTAMYYCARDVNYNILTGPGGLWGQGTLVTVSS
VL: QSALTQPPSASGSPGQSVTISCTGTSSDVGGYNFVSWYQQHPGKAPKLMIYEVSKRPSGVPDRFSGSKSGNTASLTVSGLQAEDEADYYCSSYAGSNNFVFGTGTKVTVLG
B2: mAb15163 (antibody, V domains shown)
VH: EVQLVETGGGLIQPGESLRLSCAASGFIVSTNYMNWVRQAPGKGLEWVSVIYRGGSTYYADSVKGRFTISRDNSKNTLFLQMNSLRAEDTAVYYCARGHEDFDYDTPASGAFDIWGQGTMVTVSS
VL: B1 VL with Y32H, F34Y, L48V, N98K
B3: mAb14282 (antibody, V domains shown)
VH: QVQLVQSGAEVKKPGASVKVSCKASGYIFTDHYMHWVRQAPGQGLEWMGWINPNSGATNYAQNFQGRVTMTRDTSIITVYMELSRLRSDDTAVYYCARDSSPYMIRYTMDVWGQGTTITVSS
VL: QSALTQPASVSGSPGQSITISCTGTSSDVGSYNLVSWYQQHPGKAPKLMIYELTKRPSGVSNRFSGSKSGNTASLTISGLQAEDEADYYCSSYRGSVTDVVFGGGTKLTVLG
B4: mAb15160 (antibody, V domains shown)
VH: EVQLVESGGGLVQPGGSLRLSCSASGFTFSRYAMYWVRQAPGKGLEYVSAISSDGGSTYDADSVKGRFTISRANSKNTLYLQMSSLRAEDTAVYYCVKGLRELLYYYYGMDVWGQGTTVTVSS
VL: DIQMTQSPSSLSASVGDRVTITCRAGQSISSFLNWYQQKPGKAPKLLIYAASSLQSGVPSRFSGSGSGTDFTLTISSLQPEDFATYYCQQSYITPFTFGPGTKVDIKR
B5: mAb14230 (antibody, V domains shown)
VH: EVQLVESGGGLIQPGRSLRLSCAASGFTFDDYAMHWVRQAPGKGLEWVSGISWNSVSIDYADSVKGRFTISRDNAKNSLYLQMTSLTVEDTALYYCAKAFGYETLTGSDYFAYWGPGTLVTVSS
VL: EIVLTQSPGTLSLSPGERATLSCRASQTVISTYLAWYQQKPGQSPRLLIYGASSRATGIPDRFSGSGSGTDFTLTISRLEPEDFAVYYCQQYGSSPQLTFGGGTKVEIKR
B6: mAb14281 (antibody, V domains shown)
VH: QVQLVQSGADVKKPGASVKVSCKTSGYIFTGYYIHWVRQAPGQGLEWMGWINPNSGGTNSAQKFQGRVTMTRDTSISTVYMELSRLRSDDTAVYYCAKSNSFSVLDYNFDYWGQGTLVTVSS
VL: SSELTQDPAVSVALGQTVRITCQGDSLRSYYASWYQQKPGQAPVLVIYDKNNRPSGIPDRFSGSSSGNTASLTITGAQAEDEADYYCNSRDSSRNHLVVFGGGTKLTVLG
B7: mAb15157 (antibody, V domains shown)
VH: EVQLVESGGALVQPGGSLRLSCAASGFPFTIYAMTWVRQAPGKGLEWVSVITGSGDSTYYADSVKGRFTISRDNSKNTLYLQMNSLRAEDTAVYYCVKTGEGFFYYYYGMDVWGQGTTVTVSS
VL: QSVLTQPPSVSAAPGQKVTISCSGSSSNIGNSYISWYQQLPGTAPKLLIYVNNKRPSGIPDRFSGSKSGTSATLGITGLQTGDEADYYCGTWDSSLSAGVFGSGTKVTVLG
B8: mAb14234 (antibody, V domains shown)
VH: QVQLVESGGGVVQPGRSLRLSCAASGFTFSSYGIHWVRQAPGKGLEWVAIIWYDGSEKYYADSVKGRFTISRDNSKNTLFLQMNSLEAEDTAVYYCARGPDLLTGYYNYFYYGMDVWGQGTTVTVSS
VL: QSVLTQPPSVSGAPGQRVTISCTGSSSNIGIGYDVHWYQQLPGTVPKLLIYGNTNRPSGVPDRFSGSKSGTSASLAITGLQAEDEADYYCQSYDSSLSSYVFGTGTKVTVLG
B9: mAb14285 (antibody, V domains shown)
VH: QVQLVQSGAEVKKPGASVKVSCKASGYTFTGYFIHWVRQAPGQGLEWMGWISPISGGTNYAQKFQGRVTVTRDTSITTAYMELSRLTSDDTAVYHCAREGGTWKGDFDYWGQGTLVTVSS
VL: QSALTQPASVSGSPGQSITISCTGTSSDVESYNLVSWYQQHPGKAPKLMIYEGSKRPSGVSNRFSGSKSGNTASLTISGLQAEDEADYYCSSYAGSSTWVFGGGTKLTVLG
B10: mAb15165 (antibody, V domains shown)
VH: EVQLVESGGGLVQPGGSLRLSCAASGFTVSSNYMSWVRQAPGKGLEWVSAIYSGDSTYYADSVKGRFTISKDNSKNTLYLQMNSLRGEDTAVYYCARLGGALQAYDGAFDYWGQGTLATVSS
VL: B9 VL with V29F, E30G, S54N, N62I
B11: mAb15166 (antibody, V domains shown)
VH: EVQLVESGGGLVQPGGSLRLSCAASGFTVTSNYMSWVRQAPGKGLEWVSAIYSGESTYYADSVKGRFTISRDSSKNTLYLQMNSLRVEDTAVYYCASIHDYSNYVGGFDPWGQGTLVTVSS
VL: B9 VL with T25P, V29F, E30G, S54T
B12: mAb15164 (antibody, V domains shown)
VH: EVQLVESGGGLVQPGGSLRLSCAASGFAVSSNYMTWVRQAPGKGLEWVATIYSGDSTYYADSVKGRFTISRHNSKNTLSLQMNSLRADDTAIYYCARLSGVLSGTYNGAFDIWGQGTMVTVSS
VL: B9 VL with V29F, E30G, S31N, L34I, K44Q, L48V, S54N, N71H
B13: mAb14292 (antibody, V domains shown)
VH: EVQLVESGGGLVQPGGSLRLSCVASGFAFSTYEMNWVRQAPGKGLEWVSYISSSGSTIYYADSVKGRLTISRDNVKNSLYLQMNSLRVEDTAIYYCARDAIRNNDILTDPATFDPWGQGTLVTVSS
VL: not shown
B14: mAb14286 (antibody, V domains shown)
VH: QVQLVQSGAEVKKPGASVKVSCKASGYTFTDYFIHWVRQAPGQGLEWMGWINPTSGGTNYAQKFRGRVTMTRDTSISTAYVELSRLRSDDTALYYCARDLPFYSDTKQFDYWGQGTLVTVSS
VL: QSALTQPASVSGYPGQSITISCTGTSSDVGGYNYVSWYQQHPGKAPKLMIFDVSNRPSGVSNRFSGSKSGNTASLTFSGLQAEDEADYYCSSYTSSSTLVFGGGTKLTVLG
B15: mAb14260 (antibody, V domains shown)
VH: EVQLVESGGGLVQPGGSLRLSCAASGFTFSIYEMNWVRQAPGKGLEWVSYITSSGFTIYYADSVKGRFTISRDNAKNSLYLQMHSLRAEDTAVYYCATSSSSGYYFDYWGQGTLVTVSS
VL: not shown
B16: mAb15156 (antibody, V domains shown)
VH: QLQLQESGPGLVKSSETLSLTCTVSASITGSTYYWGWIRQPPGKGLEWIGSIYYSGTTYYKASLKSRVTISVDTSKNQFSLKLTSVTVADTAVYYCVSHLLGNYHKYGMDVWGQGTTVTVSS
VL: QSVLTQPPSASGTPGQRVTISCSGSRSNIGINTVNWYQQFPGTALNLLIFSDNQRPSGVPDRFSGSKSGTSASLAISGLQSEDEADYYCAAWDDSLNGPDWVFGGGTKLTVLG
B17: mAb15159 (antibody, V domains shown)
VH: EVQLVESGGGLVQPGGSLRLSCAASGITVSSNYMTWVRQAPGKGLEWVSLIYSGGSTFYADSVRGRFTISRDNSKNTLYLQMNSLRAEDTAVYYCARDLVVYGMDVWGQGTTVTVSS
VL: DIQLTQSPSSLSASVGDRVTITCRASQGISSYLAWYQQKPGKAPKLLIYAASTLQSGVPSRFSGSGSGTDFTLTISSLQPEDFATYYCQHLNSDPHTFGQGTKLEIKR
B18: mAb15170 (antibody, V domains shown)
VH: B17 VH with S25T, T35S, R64K, D72H, N83S, V101D, Y102F
VL: B17 VL with S31N, A84G, H90Q, P95S, H96P, L104V
B19: mAb14312 (antibody, V domains shown)
VH: EVQLVESGGGLVQPGGSLRLSCAASGFTVSRSYMTWVRQAPGKGLEWVSVIFTGGRTDHADSVKGRFTISRHNSKNTLYLQMNSLRTEDTAVYYCARVAIVGATGAFDIWGQGTMVTVSS
VL: QSVLTQPPSVSGAPGQRVTISCTGSSSNIGAGDDVHWYQQLPGTAPKLLIYGNSNRPSGVPDRFSGSKSGTSASLAITGLQAEDEADYYCQSYDSSLSGSVVFGGGTKLTVLG
B20: mAb15161 (antibody, V domains shown)
VH: EVQLVESGGGLVQPGGSLRLSCAASGFTFSSYEMNWVRQAPGKGLEWVSYISSSGSILYYADSVKGRFTASRDNAKNSLYLQMNSLRAEDTGVYYCARREYQLLRPFEFWGQGTLVTVSS
VL: not shown
B21: mAb15162 (antibody, V domains shown)
VH: EVQLVETGGGLIQPGGSLRLSCAASEFIVSRNYMSWVRQAPGKGLEWVSLIYSGGSTYYADSVKGRFTISRDNSKNILYLQMNSLRAEDTAVYYCARDRGGISDYWGQGTLVTVSS
VL: DIQMTQSPSSLSASVGDRVTITCQASQDINKYLNWFQQKPGKAPKLLIYDASNLETGVPSRFSGSGSGTDFTFTISSLQPEDIATYYCQQYDNLPRTFGQGTKLEIKR
B22: mAb15158 (antibody, V domains shown)
VH: EVQLVESGGGLVQPGGSLRLSCAASGFSFSSNWMSWVRQAPGKGLEWVGNINQDGSEKYYVDSVEGRFTISRDNAKKSLYLQMNSLRAEDTAVYYCARDLGVLWFGDFVDWGQGALVTVSS
VL: DIQMTQSPSSLSASVGDRVTITCRASQAISNSLAWYQQKPGKAPKLLLYAASTLESGVPSRFSGSGSGTDYTLTISSLQPEDFATYYCLQYYGSPRTFGQGTKVEIKR

Where a chain is given by its changes, count along the chain named.

The target in the experiment is SARS-COV-2 RBD extracellular domain expressed with a C-terminal myc-myc-hexahistidine tag (SARS-CoV-2). The experiment is described as follows: SPR (Biacore), mAb captured by anti-human Fc, RBD-mmH in solution, 25 C.
For the molecule B1, the “RBD monomer bound at 50 nM (RU)” value was determined as 177 RU.
On the same count and under the same terms, with B2 the figure was 51 RU; with B3, 170 RU.
Still for that read-out and setting: as for B4, the figure is 9.3 RU; as for B5, 114 RU.
Still for that read-out and setting: with B6 the figure was 158 RU.
On to B7, for which the “RBD monomer bound at 50 nM (RU)” value turned out to be 20.3 RU.
Same read-out and setting: as for B8, the figure is 153 RU; as for B9, 158 RU; as for B10, 33.9 RU.
Same read-out and setting: as for B11, the figure is 13.3 RU; as for B12, 41.2 RU.
On the same count and under the same terms, with B13 the figure was 11.1 RU; with B14, 158 RU.
With B15, the Kd amounted to 0.738 nM, the “RBD monomer bound at 50 nM (RU)” value was 174 RU, the koff is 0.00138 s⁻¹ and the on-rate (kon) was found to be 1.87e+06 M⁻¹ s⁻¹. The same molecule displayed a t½ of 8.4 min.
Consider B16, for which the “RBD monomer bound at 50 nM (RU)” value stood at 91 RU.
Regarding B17, the “RBD monomer bound at 50 nM (RU)” value was 62 RU.
On the same count and under the same terms, as for B18, the figure is 21.8 RU; as for B19, 191 RU.
On the same count and under the same terms, as for B20, the figure is 40.3 RU.
The same measure, in the same setting: with B21 the figure was 49.6 RU.
For the molecule B22, the “RBD monomer bound at 50 nM (RU)” value was 26.3 RU.

Source of the values: patent US20260069689A1, “ANTI-SARS-COV-2-SPIKE GLYCOPROTEIN ANTIBODIES AND ANTIGEN-BINDING FRAGMENTS” (Regeneron, published 2026).
